PubChem BioAssay AID651644 (National Center for Advancing Translational Sciences (NCATS), 2012)
The entries are a selection whose mix differs from that of the whole data set. Activity calls are given as the source filed them. The call rests on the fitted dose curve; in most records, active means well fitted falling curve with a large enough effect; inconclusive means small, poorly fitted or top-dose-only effect; inactive means no such curve, though single readings can be large or run the other way.

Test: qHTS Assay for Inhibitors of the HIV-1 protein Vpr; further: nearly all actives have a fitted effect of over 50% in size
Conditions: S. pombe RE007 Vpr strain, BacTiter-Glo ATP luminescence, 24 h
Potency means the concentration at half of the fitted maximal effect.

| Structure (SMILES) | Potency |
| --- | --- |
| O=P(Nc1nccs1)(c1ccccc1)c1nc2ccccc2s1 (stereo unspecified) | active: 15.8 µM |
